Measured values from several laboratories, pooled; numbers as filed in NIAID ChemDB.

All rows: growth or infection tests; species: Candida tropicalis

Blank or dashed fields: not listed here. Neighbouring rows are from separate reports. ECn is the concentration giving n% inhibition of infection, replication or growth. MIC50, MIC90 and the like: level of inhibition, or share of isolates inhibited.

smiles,method,setting,cell line,strain or isolate,measure,value
Fc1ccc(C(Cn2ccnc2)NCc2ccc(-c3ccccc3)cc2)cc1,-,-,VERO,CBS 94 CA 44 CA 14,EC50,12 µg/mL
C[C@@H]1C(=O)N(CCCCc2ccccc2)C(=O)[C@@H]1C,broth dilution / turbidity,-,-,CCC 131-2000,MIC,62.5 µg/mL
C=CCc1ccc(O)c(OC)c1,turbidity,-,-,2768,MIC90,500 µg/mL
Clc1ccc(C(Cn2ccnc2)OCc2csc3c(Cl)cccc23)c(Cl)c1,absorbance,48 h,-,65 isolates,MIC50,1 µg/mL
Fc1ccc(C(Cn2ccnc2)NC/C=C/c2ccccc2)cc1,-,-,-,CBS 94 CA 44 CA 36,MIC,50 µg/mL
Nc1ncccc1-c1cc(Cc2ccc(COc3ccccn3)cc2)no1,broth dilution,-,-,8662,MIC,0.015 µg/mL
CC1CC2=C(O1)c1ccccc1C(=O)C2=O,broth dilution,-,-,Clinical isolate,MIC,16 µg/mL
CC[C@@H]([C@H](C)O)n1ncn(-c2ccc(N3CCN(c4ccc(OC[C@@H]5CO[C@@](Cn6cncn6)(c6ccc(F)cc6F)C5)cc4)CC3)cc2)c1=O,broth dilution,-,-,-,MIC90,0.5 µg/mL
C[C@H]1[C@H](O)[C@@H](C)/C=C/C=C/C=C/C=C/C=C/C=C/C=C/[C@H](O[C@@H]2O[C@H](C)[C@@H](O)[C@H](N)[C@@H]2O)C[C@@H]2O[C@](O)(C[C@@H](O)C[C@@H](O)CC[C@H](O)[C@@H](O)C[C@@H](O)CC(=O)O[C@H]1C)C[C@H](O)[C@H]2C(=O)O,broth dilution / turbidity,-,-,CCC 131-2000,MIC,0.48 µg/mL
Cc1ccc(C(O)c2cccc(C(O)CCn3ccnc3)c2)cc1,broth dilution,-,-,RTCC 1065,MIC,>64 µg/mL
CC1CC(=O)N(CCc2ccccc2)C1=O,broth dilution / turbidity,-,-,CCC 131-2000,MIC,125 µg/mL
O=C1C(O)C(c2ccccc2)N1c1ccccc1,-,-,-,CP/K92,MIC,25.09 µM
CCC(C)CC(C)CCCCCCCCC(=O)N[C@H]1C[C@@H](O)[C@H](NCCN)NC(=O)[C@@H]2[C@@H](O)CCN2C(=O)[C@H]([C@H](O)CCN)NC(=O)[C@H]([C@H](O)[C@@H](O)c2ccc(O)cc2)NC(=O)[C@@H]2C[C@@H](O)CN2C(=O)[C@H]([C@@H](C)O)NC1=O,-,-,-,10 isolates,MIC50,0.2 µg/mL
CC(=O)OC1C(=O)N2CCCSC12c1ccccc1,-,-,-,CP/K92,MIC,90.25 µM
O=C(CCn1ccnc1)c1ccc(Br)cc1,broth dilution,-,-,RTCC 1065,MIC,>64 µg/mL
COc1ccc(N2C(=O)C[C@@H](C)C2=O)cc1,broth dilution / turbidity,-,-,CCC 131-2000,MIC,62.5 µg/mL
O=C1c2ccccc2CC1Cn1ccnc1,broth dilution,-,-,RTCC 1065,MIC,>64 µg/mL
CC(=O)N1CCN(c2ccc(OC[C@H]3CO[C@](Cn4ccnc4)(c4ccc(Cl)cc4Cl)O3)cc2)CC1,-,-,-,10 isolates,MIC50,0.2 µg/mL
COc1cc(O)c2c(c1)C(=O)c1c(cc3c(c1O)-c1c(cc(C)c(C(=O)NC(CO)C(=O)O)c1O)[C@H](OC1OC(C)C(O)C(OC4OCC(O)C(O)C4O)C1O)C3O)C2=O,-,-,-,11 isolates,MIC90,8 µg/mL
Cc1ccc(N2C(=O)[C@@H](O)[C@H]2/C=C/c2ccccc2)cc1,-,-,-,CP/K92,MIC,21.5 µM
Clc1ccc(C(Cn2ccnc2)NCc2cccc3ccccc23)c(Cl)c1,-,-,-,CBS 94 CA 44 CA 30,MIC,23.3 µg/mL
CC1CC(=O)N(c2ccc(F)cc2F)C1=O,broth dilution / turbidity,-,-,CCC 131-2000,MIC,250 µg/mL
Clc1ccc(C(Cn2ccnc2)NCc2ccc(-c3ccccc3)cc2)cc1,-,-,-,CBS 94 CA 44 CA 26,MIC,0.87 µg/mL
O=C(CCn1ccnc1)c1cccc(O)c1,broth dilution,-,-,RTCC 1065,MIC,>64 µg/mL
Clc1ccc(C(Cn2ccnc2)NC/C=C/c2ccccc2)cc1,-,-,-,CBS 94 CA 44 CA 48,MIC,50 µg/mL
COc1ccc(N2C(=O)C(OC(C)=O)C2c2ccccc2)cc1,-,-,-,CP/K92,MIC,40.19 µM

4 of the rows above, restated:

smiles,method,setting,cell line,strain or isolate,measure,value
CCC(C)CC(C)CCCCCCCCC(=O)N[C@H]1C[C@@H](O)[C@H](NCCN)NC(=O)[C@@H]2[C@@H](O)CCN2C(=O)[C@H]([C@H](O)CCN)NC(=O)[C@H]([C@H](O)[C@@H](O)c2ccc(O)cc2)NC(=O)[C@@H]2C[C@@H](O)CN2C(=O)[C@H]([C@@H](C)O)NC1=O,-,-,-,10 isolates,MIC50,0.2 µg/mL
Clc1ccc(C(Cn2ccnc2)NCc2cccc3ccccc23)c(Cl)c1,-,-,-,CBS 94 CA 44 CA 30,MIC,23.3 µg/mL
Fc1ccc(C(Cn2ccnc2)NC/C=C/c2ccccc2)cc1,-,-,-,CBS 94 CA 44 CA 36,MIC,50 µg/mL
O=C1C(O)C(c2ccccc2)N1c1ccccc1,-,-,-,CP/K92,MIC,25.09 µM